Results on one compound are retold here after PubChem BioAssay AID1258 (University of Pittsburgh Molecular Library Screening Center, 2008).

The list shows a part of the results, in another mix than the full data. Calls of active or inactive are those of the source.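 How the source made its calls: active means inhibition above about 50% in both repeat tests (limit read from the data); inconclusive means one repeat under the set limit, the other over it; inactive means both repeats under the set limit.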

The assay can be described thus: antileishmanial activity against promastigotes – 1 µM repeat of primary hits, confirmation (AID 1258). Conditions: L. major promastigote growth, resazurin fluorescence, 48 h; at 1 µM; active compounds read high. In outline: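 Material: Leishmania major promastigote parasites / Medium: M199, 10% heat-inactivated FBS / Timing: 44 h compound exposure plus 4 h dye step, both 28 °C / Evaluation: parasite viability inhibition versus plate controls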
As to `O=[N+]([O-])c1cc([N+](=O)[O-])c(NCC2CCS(=O)(=O)C2)c([N+](=O)[O-])c1` (stereo unspecified), the inhibition is inactive: -1.08%.
